A mixed list of measured activities; the numbers were collected in NIAID ChemDB.

Common to all: cytotoxicity tests; cell line: MT-4; measure: CC50

CCn: concentration that lowers growth or viability of the cells by n%. An empty or dashed field is not shown. Conditions beyond the fields shown may differ between rows.

compound,read by,result
Nc1ncnc2c1ncn2[C@H]1CC[C@@H](CO)O1,-,76 µM
O=c1[nH]cnc2c1ncn2[C@H]1CC[C@@H](CO)O1,MTT,>100 µM
O=c1[nH]cnc2c1ncn2[C@H]1CC[C@@H](CO)O1,-,>2.24 µM
Cc1cn([C@H]2C[C@H](N=[N+]=[N-])[C@@H](COC(=O)CCC(=O)O)O2)c(=O)[nH]c1=O,MTT,45.01 µg/mL
CC(C)(C)C(=O)SCCOP(=O)(COCCn1cnc2c(N)ncnc21)OCCSC(=O)C(C)(C)C,-,1.8 µM
Fc1cccc(F)c1C1OCc2nc3ccccc3n21,-,62 µM
CC(C)=CCc1cc([C@@H]2CC(=O)c3c(O)cc(O)cc3O2)cc(O)c1O,-,26 µg/mL
Cc1cn([C@H]2C[C@H](N=[N+]=[N-])[C@@H](CO)O2)c(=O)[nH]c1=O,MTT,210.4 µg/mL
CCOC(=O)c1cn(C)cc1S(=O)(=O)c1cc(Cl)ccc1N,MTT,>200 µM
NC(N)=NCCCC(=O)NCC1OC(OC2C(NC(=O)CCCN=C(N)N)CC(NC(=O)CCCN=C(N)N)C(OC3CC(NC(=O)CCCN=C(N)N)C(O)C(CO)O3)C2O)C(O)C(O)C1O,-,>200 µM
NC(=O)N=Nc1c(O)n(CCOCCn2c(O)c(N=NC(N)=O)c3ccccc32)c2ccccc12,MTT,121 µM
CCc1cc(NCc2nc3c(C)ccc(C)c3o2)c(=O)[nH]c1C,-,>60 µM
O=C1Nc2ccc(Cl)cc2S(=O)(=O)c2cn(Cc3cccc4ccccc34)cc21,MTT,>200 µM
CSc1ccc(OP(=O)(OC[C@@H]2CC[C@H](n3cnc4c(N)ncnc43)O2)OC[C@@H]2CC[C@H](n3cnc4c(N)ncnc43)O2)cc1,trypan blue,>250 µM
Nc1ncnc2c1ncn2CCOCP(=O)(O)O,-,>10 µM
CN1C(=S)c2cn(C)cc2S(=O)(=O)c2cc(Cl)ccc21,MTT,>200 µM
O=C1C(=O)N(CCOCCN2C(=O)C(=O)c3cc(Cl)ccc32)c2ccc(Cl)cc21,MTT,184 µM
COc1ccc(CN[C@@H](C(=O)N[C@H](C(=O)NCc2nc3ccccc3[nH]2)C(C)C)[C@H](O)[C@H](Cc2ccccc2)NC(=O)[C@@H](NC(=O)OCc2ccccc2)C(C)(C)C)cc1,-,12.1 µM
CCO/N=C1\C(=O)N(CCOCCN2C(=O)/C(=N/OCC)c3ccccc32)c2ccccc21,MTT,255 µM
C[C@H](Cn1cnc2c(N)nc(N)nc21)OCP(=O)(O)O,-,>300 µM
O=C(O)c1c[nH]c2ccc(Cc3ccccc3)cc2c1=O,MTT,19 µM
CCc1cc(NCc2nc3ccccc3o2)c(=O)[nH]c1C,-,>60 µM
CCOC(=O)c1cn(CC=C(C)C)cc1S(=O)(=O)c1cc(Cl)ccc1N,MTT,>200 µM
CC1(C)C2=CC(=O)C(c3ccccc3)([N+](=O)[O-])C(=O)N2c2ccc(Cl)cc21,-,29 µM
CC(=O)SCCOP(=O)(OCCSC(C)=O)OC[C@@H]1CC[C@H](n2cnc3c(N)ncnc32)O1,-,16 µM
CC(=O)c1cc(NCc2nc3c(Cl)ccc(Cl)c3o2)c(=O)[nH]c1C,-,>60 µM
Cc1cn([C@H]2C[C@H](N=[N+]=[N-])[C@@H](COC(=O)C3=CN(C)C=CC3)O2)c(=O)[nH]c1=O,-,28 µM
O=C1CN(C(=O)c2cc(-c3cc(F)cc(Cl)c3)n(-c3ccc(F)c(Cl)c3)n2)CN1,resazurin,15 µM
Cc1cn([C@H]2C[C@H](N=[N+]=[N-])[C@@H](COC(=O)CCC(=O)OCC3OC4OC5C(COS(=O)(=O)O)OC(OC6C(COS(=O)(=O)O)OC(OC7C(COS(=O)(=O)O)OC(OC8C(COS(=O)(=O)O)OC(OC9C(COS(=O)(=O)O)OC(OC3C(OS(=O)(=O)O)C4OS(=O)(=O)O)C(OS(=O)(=O)O)C9OS(=O)(=O)O)C(OS(=O)(=O)O)C8OS(=O)(=O)O)C(OS(=O)(=O)O)C7OS(=O)(=O)O)C(OS(=O)(=O)O)C6OS(=O)(=O)O)C(OS(=O)(=O)O)C5OS(=O)(=O)O)O2)c(=O)[nH]c1=O,MTT,70.07 µg/mL
Cc1cn([C@H]2CC[C@@H](COP(=O)(OC[C@@H]3CC[C@H](n4cc(C)c(=O)[nH]c4=O)O3)Oc3ccc(S(C)(=O)=O)cc3)O2)c(=O)[nH]c1=O,trypan blue,>250 µM
Nc1ccn([C@@H]2CC(CO)(CO)CS2)c(=O)n1,-,>100 µg/mL
CSc1ccc(OP(=O)(OC[C@@H]2C=C[C@H](n3cc(C)c(=O)[nH]c3=O)O2)OC[C@@H]2C=C[C@H](n3cc(C)c(=O)[nH]c3=O)O2)cc1,trypan blue,>250 µM
COc1ccc(CN[C@@H](C(=O)N[C@H](C(=O)NCc2nc3ccccc3[nH]2)C(C)C)[C@H](O)[C@H](Cc2ccccc2)NC(=O)[C@@H](NC(=O)[C@@](C)(O)c2ccccc2)C(C)(C)C)cc1,-,9.3 µM
CSc1ccc(OP(=O)(OC[C@@H]2CC[C@H](n3cnc4c(=O)[nH]cnc43)O2)OC[C@@H]2CC[C@H](n3cnc4c(=O)[nH]cnc43)O2)cc1,trypan blue,>250 µM
C=CC(C)(C)c1cc(/C=C/C(=O)c2ccc(O)cc2)c(OC)cc1O,-,15 µg/mL
O=C([O-])c1cn(CCO)c2ccc(Cc3ccccc3)cc2c1=O.O=C([O-])c1cn(CCO)c2ccc(Cc3ccccc3)cc2c1=O.[Mg+2],MTT,≥36 µM
O=C1CC(c2ccc(O)cc2)Oc2cc(O)ccc21,-,>100 µg/mL
Cc1cn([C@H]2C[C@H](N=[N+]=[N-])[C@@H](COC(=O)CCC(=O)OC[C@H]3O[C@@H]4O[C@H]5[C@H](O)[C@@H](O)[C@@H](O[C@H]6[C@H](O)[C@@H](O)[C@@H](O[C@H]7[C@H](O)[C@@H](O)[C@@H](O[C@H]8[C@H](O)[C@@H](O)[C@@H](O[C@H]9[C@H](O)[C@@H](O)[C@@H](O[C@H]3[C@H](O)[C@H]4O)O[C@@H]9CO)O[C@@H]8CO)O[C@@H]7CO)O[C@@H]6CO)O[C@@H]5CO)O2)c(=O)[nH]c1=O,MTT,5.66 µg/mL
CC(C)[C@H](NC(=O)OCc1ccccc1)C(=O)N[C@@H](Cc1ccccc1)[C@@H](O)[C@@H](NCc1ccc(Cl)cc1)C(=O)N[C@H](C(=O)NCc1nc2ccccc2[nH]1)C(C)C,-,9.9 µM
O=c1[nH]cnc2c1ncn2[C@H]1CC[C@@H](CO)O1,MTT,>212 µM
NC(N)=NCCC[C@H](N)C(=O)NC[C@H]1O[C@H](O[C@H]2C(O)[C@@H](O[C@H]3O[C@H](CO)[C@@H](O)[C@H](NC(=O)[C@@H](N)CCCN=C(N)N)[C@H]3O)[C@H](NC(=O)[C@@H](N)CCCN=C(N)N)C[C@@H]2NC(=O)[C@@H](N)CCCN=C(N)N)[C@H](O)[C@@H](O)[C@@H]1O,-,>1130 µM
CSc1ccc(OP(=O)(OC[C@@H]2C=C[C@H](n3cnc4c(N)ncnc43)O2)OC[C@@H]2C=C[C@H](n3cnc4c(N)ncnc43)O2)cc1,trypan blue,>250 µM
Cc1cn([C@H]2C[C@H](N=[N+]=[N-])[C@@H](COC(=O)NCCSC(=O)OC[C@@H]3CC[C@H](n4cnc5c(=O)[nH]cnc54)O3)O2)c(=O)[nH]c1=O,MTT,>100 µM
COc1ccc(CN[C@@H](C(=O)N[C@H](C(=O)NCc2nc3ccccc3[nH]2)C(C)C)[C@H](O)[C@H](Cc2ccccc2)NC(=O)[C@@H](NC(=O)CCc2ccc(O)cc2)C(C)(C)C)cc1,-,17.1 µM
Cc1cn([C@H]2C[C@H](N=[N+]=[N-])[C@@H](COC(=O)c3ccc[n+](C)c3)O2)c(=O)[nH]c1=O,-,47 µM
CC(C)(C)C(=O)SCCOP(=O)(OCCSC(=O)C(C)(C)C)OCC1(Cc2c[nH]c3c(N)ncnc23)CCC1,-,44.7 µM
O=c1ccn([C@H]2CC[C@@H](CO)O2)c(=O)[nH]1,trypan blue,>500 µM
CC(=O)SCCOP(=O)(OCCSC(C)=O)OC[C@@H]1CC[C@H](n2cnc3c(=O)[nH]cnc32)O1,-,>100 µM
Fc1cccc(F)c1C1SCc2nc3ccccc3n21,-,48.6 µM
C[C@@H](Cn1cnc2c(N)ncnc21)OCP(=O)(O)O,-,>300 µM
Cc1cn([C@H]2C[C@H](N=[N+]=[N-])[C@@H](CO)O2)c(=O)[nH]c1=O,MTT,>94 µM
CS(=O)(=O)c1ccc(OP(=O)(OC[C@@H]2C=C[C@H](n3ccc(=O)[nH]c3=O)O2)OC[C@@H]2C=C[C@H](n3ccc(=O)[nH]c3=O)O2)cc1,trypan blue,>250 µM
Cc1cn([C@H]2C=C[C@@H](CO)O2)c(=O)[nH]c1=O,MTT,≥100 µM
CC(C)Nc1cccnc1N1CCN(C(=O)c2cc3cc(NS(C)(=O)=O)ccc3[nH]2)CC1,MTT,>3.827 µM
CC(C)=CCc1c(O)cc(O)c2c1OC(c1ccc(O)c(O)c1)CC2=O,-,60 µg/mL
O=C(O)c1cn(CCO)c2ccc(Cc3ccccc3)cc2c1=O,MTT,49 µM

Repeating the final 8 entries:

compound,read by,result
Fc1cccc(F)c1C1SCc2nc3ccccc3n21,-,48.6 µM
C[C@@H](Cn1cnc2c(N)ncnc21)OCP(=O)(O)O,-,>300 µM
Cc1cn([C@H]2C[C@H](N=[N+]=[N-])[C@@H](CO)O2)c(=O)[nH]c1=O,MTT,>94 µM
CS(=O)(=O)c1ccc(OP(=O)(OC[C@@H]2C=C[C@H](n3ccc(=O)[nH]c3=O)O2)OC[C@@H]2C=C[C@H](n3ccc(=O)[nH]c3=O)O2)cc1,trypan blue,>250 µM
Cc1cn([C@H]2C=C[C@@H](CO)O2)c(=O)[nH]c1=O,MTT,≥100 µM
CC(C)Nc1cccnc1N1CCN(C(=O)c2cc3cc(NS(C)(=O)=O)ccc3[nH]2)CC1,MTT,>3.827 µM
CC(C)=CCc1c(O)cc(O)c2c1OC(c1ccc(O)c(O)c1)CC2=O,-,60 µg/mL
O=C(O)c1cn(CCO)c2ccc(Cc3ccccc3)cc2c1=O,MTT,49 µM